B1: HIV-1 Env, reservoir clone (protein)
chain: MKAKETRKNYQHLWRWGIMLLGMLMICSAASQLWVTVYYGVPVWKEATTTLFCASDAKAYDTEVHNVWATHACVPTDPNPQEVVLGNVTEDFNMWKNNMVEQMHEDIISLWDQSLKPCVKITPLCVTLNCTEYSNATSTTWGQMEKGEIKNCSFNVTTNIKNKMQKEYALFYKLDVVQIGDNSTNYRLIKCNTSAITQACPKVSFQPIPIHYCAPAGFAILKCNNKTFNGLGPCTNVSTVQCTHGIRPVVSTQLLLNGSLAEEEIVIRSENFSDNAKNIIVHLNASIEINCTRPNNNTRKSITIGPGRAFYATGDVIGDIRQAHCNISGEKWNEALKQIAIKLREQFGHDKTIVFNQSSGGDPEIVAHSVNCGGEFFYCNSTKLFNSTWHSNGTQNNTTESNETITLPCKIKQIINLWQEVGKAIYAPPISGPIRCSSNITGLLLTRDGGHTSETNKETFRPGGGDMRDNWRSELYKYKVVKIEPLGVAPTKAKRRVVQRERRAVGTFGALFLGFLGTAGSTMGAASITLTVQARQLLSGIVQQQNNLLKAIEAQQHLLQLTVWGIKQLQARVLAVERYLKDQQLLGLWGCSGKLICTTTVPWNASWSNKSLEQIWENMTWMQWEKEIDNYTGIIYSLISESQLQQEKNEKELLELDKWASLWTWFDITNWLWYIKIFIMIVGGLIGLRIVFAVLSIVNKVRKGYSPLSFQTRLPTPRGPDRPEGIEEEGGERGRDTSIRLVDGFLALIWDDLRNLCLFSYHHLRDLILIVVRTVELLGRRGWELLKYWWNLLKYWSQELKKSAVSLFNAAAIAVAEGTDRVIEVVQRAGRGILHVPRRIRQGLERALQ
B2: HIV-1 Env, reservoir clone (protein)
chain: B1 chain with M25I, Y579C
B3: HIV-1 Env, reservoir clone (protein)
chain: MKVKVTMRNYQNLWRGGTLLLGMLMICSGAEQLWVTVYYGVPVWKEANTTLFCASDAKAYDTEVHNVWATHACVPTDPSPQEVVLENVTEDFNIWKNNMVEQMHEDIISLWDQSLKPCVKLTPLCVTLNCSNVNNQTGTNNNSSHGKDVEGEMKNCSFNVTTNIRDKIKREYALLYKLDIVPIDNDNTSYTLTSCNTSVITQACPKVSFEPIPIHYCAPAGFAILKCNNKTFNGKGPCTNVSTVQCTHGIRPVVSTQLLLNGSLAEDVVLRSENFTNNAKTIIVQLKEPVIINCTRPNNNTRKSIPMGPGRAWYTTGEIIGDIRQAHCNISKAQWNKTLQQVVTKLREQFGNKTIVFNQPTGGDPEIVMHSFNCGGEFFYCNTSKLFNSTWNNSTQGINSTGESNTTITIQCKIKQIINMWQQVGKAMYAPPIAGQIKCSSNITGLLLTRDGGGNKTENETFRPAGGDMRDNWRSELYKYKVVQIKPLGIAPTKAKRRVVQREKRAVGIGALFLGFLGAAGSTMGAAAVTLTVQARQLLSGIVQQQNNLLRAIEAQQHMLQLTVWGIKQLQARVLAVERYLRDQQLLGIWGCSGKLICTTTVPWNNSWSNKSLDDIWGNMTWMEWEKEIDNYTYTIYKLIEESQNQQEKNEQELLELDKWANLWNWFDITNWLWYIKIFIIIVGGLIGLRIVFAVLSIVNRVRQGYSPLSLQTLLPAPRGPDRPGEIEEEGGERDKDTSVRLVNGFLAIIWDDLRSLCLFSYRHLRDLLLIVTRIVGLLGHRGWEVLRYWWNLLQYWIQELKNSAVSLLNVTAIAVAEGTDRVIEIAQRACRAVLHIPRRIRQGLERGLL

Where a chain is given by its changes, count along the chain named. The list shows a part of the results. Env chains of viruses from a treatment-interruption trial, translated from the printed DNA. IC50 / IC80 of two broadly neutralizing antibodies; lower = more sensitive virus; >50 µg/ml means not reached and <0.001 µg/ml is below the lowest dose. No active / inactive call. Bounds are passed on as bounds.

The target in one assay is antibody 10-1074. Description: neutralization IC50; higher = virus less sensitive to the antibody. The method, then: (§1)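 Pseudovirus bearing the Env chain mixed with antibody, from 50 µg/ml in fivefold dilutions, on TZM-bl reporter cells, in duplicate.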
For the molecule B1, the “neutralization IC50” value is less than 0.001 µg/mL.
Still for that read-out and setting: with B2 the figure was less than 0.001 µg/mL; with B3, 0.004 µg/mL.

The target of the next assay is antibody 3BNC117. The description is as above. The method, then:
as §1
Consider B1, for which the “neutralization IC50” value is 0.05 µg/mL.
On the same count and under the same terms, the figure for B2 is 0.091 µg/mL; for B3 it is 0.075 µg/mL.

The target in the next assay is antibody 10-1074. Description: neutralization IC80; higher = virus less sensitive to the antibody. How it is done:
as §1
In the case of B1, the “neutralization IC80” value worked out at 0.005 µg/mL.
On the same count and under the same terms, the figure for B2 is 0.003 µg/mL; for B3 it is 0.011 µg/mL.

A further assay has as its target antibody 3BNC117. The assay is described as above. How it is done:
as §1
For the molecule B1, the “neutralization IC80” value is greater than 50 µg/mL.
As to B2, the “neutralization IC80” value was greater than 50 µg/mL.
B3: the “neutralization IC80” value was found to be 0.248 µg/mL.

For the origin of these results see the supplement of paper PMC12637763.
